{"source": "patent US20240287533A1", "about": "“GLUTEN MODIFICATION” (The Regents of the University of California, priority 2021, published 2024)", "tested_on": "Escherichia coli dsDNA", "test": "Small Angle X-ray Scattering (SAXS) of peptide-dsDNA complexes", "assay_type": "binding", "protocol": "The peaks correspond to a rhombic columnar lattice with inter dsDNA spacing, d=4.0 nm, and tilt angle, γ=104.6°. To facilitate visualization, spectra were manually offset vertically by a multiplicative factor.\nDouble stranded DNA (dsDNA) is an example of a PAMP that is readily available in the gastrointestinal tract (e.g., from food or the gut microbiome). To assess the ability of gluten derived peptide gld-1 to bind dsDNA, Escherichia coli dsDNA was incubated with gld-1, and the formation of an ordered dsDNA-gld-1 complex was assessed.\nSmall Angle X-ray Scattering (SAXS) measurements of the complex produced Bragg reflections at q10=1.61 and q11=2.55 nm^−1.\nGenomic E. coli dsDNA was incubated with gld-2 and gld-3 to test the formation of an ordered dsDNA-peptide complex.", "key": {"[1]": {"settings": "rhombic columnar lattice of peptide-dsDNA complex"}}, "data": [{"sequence": "LWQIPEQSRCQAIHNVVHA (listed as Triticum aestivum) [gld-1]", "values": [{"measurement": "Bragg reflection q10", "setting": "SAXS of dsDNA-gld-1 complex", "value": 1.61, "unit": "nm⁻¹"}, {"measurement": "Bragg reflection q11", "setting": "SAXS of dsDNA-gld-1 complex", "value": 2.55, "unit": "nm⁻¹"}, {"measurement": "inter dsDNA spacing, d", "setting": "[1]", "value": 4.0, "unit": "nm"}, {"measurement": "tilt angle, γ", "setting": "[1]", "value": 104.6, "unit": "°"}]}]}
